Results from patent US20220089698A1, “ANTIBODIES THAT TARGET HIV GP120 AND METHODS OF USE” (published 2022).
Read-outs that look alike come from different tables or passages of the source.

Experiments:
Assay in all cases: cell-based or functional assay
[1] = biological target: HIV-1 envelope glycoprotein gp120 of virus BaL (HIV-1)
[2] = biological target: HIV-1 envelope glycoprotein gp120 of virus 92US727 (HIV-1)
[3] = biological target: HIV-1 envelope glycoprotein gp120 of virus 92HT593 (HIV-1)
[4] = biological target: HIV-1 envelope glycoprotein gp120 of virus 92US657 (HIV-1)
[5] = biological target: HIV-1 envelope glycoprotein gp120 of virus 92US712 (HIV-1)
[6] = biological target: HIV-1 envelope glycoprotein gp120 of virus 302076 (HIV-1)
[7] = biological target: HIV-1 envelope glycoprotein gp120 of virus BaL (HIV-1); remark: listed apart in the source
[8] = biological target: HIV-1 envelope glycoprotein gp120 of virus 92US727 (HIV-1); remark: listed apart in the source
[9] = biological target: HIV-1 envelope glycoprotein gp120 of virus 92HT593 (HIV-1); remark: listed apart in the source
[10] = biological target: HIV-1 envelope glycoprotein gp120 of virus 92US712 (HIV-1); remark: listed apart in the source
[11] = biological target: HIV-1 envelope glycoprotein gp120 of virus 302076 (HIV-1); remark: listed apart in the source
[12] = biological target: HIV-1 envelope glycoprotein gp120 of virus 7467 (HIV-1)
[13] = biological target: HIV-1 envelope glycoprotein gp120 of virus CH058 (HIV-1)
[14] = biological target: HIV-1 envelope glycoprotein gp120 of virus 7015 (HIV-1)
[15] = biological target: HIV-1 envelope glycoprotein gp120 of virus RHPA (HIV-1)
[16] = biological target: HIV-1 envelope glycoprotein gp120 of virus 1489 (HIV-1)
[17] = biological target: HIV-1 envelope glycoprotein of virus WITO (HIV-1)
[18] = biological target: HIV-1 envelope glycoprotein gp120 of virus 8176 (HIV-1)
[19] = biological target: HIV-1 envelope glycoprotein gp120 of virus 8318 (HIV-1)
[20] = biological target: HIV-1 envelope glycoprotein gp120 of virus 7576 (HIV-1)
[21] = biological target: HIV-1 envelope glycoprotein gp120 of virus 7051 (HIV-1)
[22] = biological target: HIV-1 envelope glycoprotein gp120 of virus 8089 (HIV-1)
[23] = biological target: HIV-1 envelope glycoprotein gp120 of virus 8106 (HIV-1)
[24] = biological target: HIV-1 envelope glycoprotein gp120 of virus 8359 (HIV-1)
[25] = biological target: HIV-1 envelope glycoprotein gp120 of virus 8117 (HIV-1)
[26] = biological target: HIV-1 envelope glycoprotein gp120 of virus CH077 (HIV-1)
[27] = biological target: HIV-1 envelope glycoprotein gp120 of virus CH106 (HIV-1)
[28] = biological target: HIV-1 envelope glycoprotein gp120 of virus REJO (HIV-1)
[29] = biological target: HIV-1 envelope glycoprotein gp120 of virus THRO (HIV-1)
[30] = biological target: HIV-1 envelope glycoprotein gp120 of virus 1413 (HIV-1)
[31] = biological target: HIV-1 envelope glycoprotein gp120 of virus 8320 (HIV-1)
[32] = biological target: HIV-1 envelope glycoprotein gp120 of virus 7103 (HIV-1)
[33] = biological target: HIV-1 envelope glycoprotein gp120 of virus 8134 (HIV-1)
[34] = biological target: HIV-1 envelope glycoprotein gp120 of virus 7141 (HIV-1)
[35] = biological target: HIV-1 envelope glycoprotein gp120 of virus 8110 (HIV-1)
[36] = biological target: HIV-1 envelope glycoprotein gp120 of virus 7714 (HIV-1)
[37] = biological target: HIV-1 envelope glycoprotein gp120 of virus 1003 (HIV-1)
[38] = biological target: HIV-1 envelope glycoprotein gp120 of virus 7595 (HIV-1)
[39] = biological target: HIV-1 envelope glycoprotein gp120 of virus 8398 (HIV-1)
[40] = biological target: HIV-1 envelope glycoprotein gp120 of virus 7406 (HIV-1)
[41] = biological target: HIV-1 envelope glycoprotein gp120 of virus 7552 (HIV-1)
[42] = biological target: HIV-1 envelope glycoprotein gp120 of virus 7007 (HIV-1)
[43] = biological target: HIV-1 envelope glycoprotein gp120 of virus 92US657 (HIV-1); remark: listed apart in the source

B1: Antibody 1.37.51-1 (antibody, human IgG1, kappa, V domains shown)
VH: QVQLVQSGAEVKKPGASVRVSCKASGYNIRDYFIHWWRQAPGQGLQWVGWINPKTGQPNNPRQFQGRVSLTRHASWDFDTYSFYMDLSRLRSDDTAVYFCARQRSDYWDFDVWGQGTMVTVSS
VL: DIQMTQSPSSLSASVGDRVTITCQANGYLNWYQQKPGKAPKLLIYDGSKLETGVPSRFSGSRWGQEYTLTINNLQPEDIATYFCQVYEFFGPGTRLDLKR
B1 was tested, and the “Virus Neutralization Potency” value [1] was 0.053 µg/mL, the “Virus Neutralization Potency” value [2] was > 20 µg/mL and the “Virus Neutralization Potency” value [3] was 0.014 µg/mL. For the same binder, the “Virus Neutralization Potency” value [4] was 2.58 µg/mL, the “Virus Neutralization Potency” value [5] was 0.149 µg/mL and the “Virus Neutralization Potency” value [6] was 0.112 µg/mL. For the same binder, the “Virus Neutralization Potency” value [7] was 0.82 µg/mL, the “Virus Neutralization Potency” value [8] was 50.3 µg/mL and the “Virus Neutralization Potency” value [9] was 0.12 µg/mL. The “Virus Neutralization Potency” value [10] was 0.13 µg/mL, the “Virus Neutralization Potency” value [11] was 0.06 µg/mL and the “Virus Neutralization Potency” value [12] was 0.06 µg/mL. The “Virus Neutralization Potency” value [13] was 0.09 µg/mL, the “Virus Neutralization Potency” value [14] was 0.1 µg/mL and the “Virus Neutralization Potency” value [15] was 0.09 µg/mL. For the same binder, the “Virus Neutralization Potency” value [16] was 0.26 µg/mL, the “Virus Neutralization Potency” value [17] was 0.11 µg/mL and the “Virus Neutralization Potency” value [18] was 0.18 µg/mL. For the same binder, the “Virus Neutralization Potency” value [19] was 0.37 µg/mL, the “Virus Neutralization Potency” value [20] was 0.34 µg/mL and the “Virus Neutralization Potency” value [21] was 0.49 µg/mL. For the same binder, the “Virus Neutralization Potency” value [22] was 1.14 µg/mL, the “Virus Neutralization Potency” value [23] was 0.97 µg/mL and the “Virus Neutralization Potency” value [24] was 1.51 µg/mL. The “Virus Neutralization Potency” value [25] was 0.92 µg/mL, the “Virus Neutralization Potency” value [26] was 2.29 µg/mL and the “Virus Neutralization Potency” value [27] was 2.8 µg/mL. The “Virus Neutralization Potency” value [28] was 3.04 µg/mL, the “Virus Neutralization Potency” value [29] was 1.28 µg/mL and the “Virus Neutralization Potency” value [30] was 2.45 µg/mL. The “Virus Neutralization Potency” value [31] was 4.09 µg/mL, the “Virus Neutralization Potency” value [32] was 2.28 µg/mL and the “Virus Neutralization Potency” value [33] was 6.97 µg/mL. The “Virus Neutralization Potency” value [34] was 51 µg/mL, the “Virus Neutralization Potency” value [35] was 4.14 µg/mL and the “Virus Neutralization Potency” value [36] was 4.33 µg/mL. The “Virus Neutralization Potency” value [37] was 12.6 µg/mL, the “Virus Neutralization Potency” value [38] was 16.2 µg/mL and the “Virus Neutralization Potency” value [39] was > 200 µg/mL. The “Virus Neutralization Potency” value [40] was > 200 µg/mL, the “Virus Neutralization Potency” value [41] was > 200 µg/mL and the “Virus Neutralization Potency” value [42] was > 200 µg/mL.

B2: Antibody A-1 (antibody, human IgG1, kappa)
heavy: QVQLLQSGAAVTKPGASVRVSCEASGYNIRDYFIHWWRQAPGQGLQWVGWINPKTGQPNNPRQFQGRVSLTRHASWDFDTFSFYMDLKALRSDDTAVYFCARQRSDYWDFDVWGSGTQVTVSSASTKGPSVFPLAPSSKSTSGGTAALGCLVKDYFPEPVTVSWNSGALTSGVHTFPAVLQSSGLYSLSSVVTVPSSSLGTQTYICNVNHKPSNTKVDKKVEPKSCDKTHTCPPCPAPELLAGPDVFLFPPKPKDTLMISRTPEVTCVVVDVSHEDPEVKFNWYVDGVEVHNAKTKPREEQYNSTYRVVSVLTVLHQDWLNGKEYKCKVSNKALPLPEEKTISKAKGQPREPQVYTLPPSREEMTKNQVSLTCLVKGFYPSDIAVEWESNGQPENNYKTTPPVLDSDGSFFLYSKLTVDKSRWQQGNVFSCSVLHEALHSHYTQKSLSLSPGK
light: not shown
In the case of B2, the “Virus Neutralization Potency” value [2] is reported as 6.08 µg/mL, the “Virus Neutralization Potency” value [3] is reported as 0.013 µg/mL and the “Virus Neutralization Potency” value [4] is reported as 2.16 µg/mL. The “Virus Neutralization Potency” value [5] was 0.085 µg/mL, the “Virus Neutralization Potency” value [7] was 0.15 µg/mL and the “Virus Neutralization Potency” value [8] was 1.82 µg/mL. The “Virus Neutralization Potency” value [9] was 0.12 µg/mL, the “Virus Neutralization Potency” value [43] was 1.81 µg/mL and the “Virus Neutralization Potency” value [10] was 0.11 µg/mL. The “Virus Neutralization Potency” value [11] was 0.1 µg/mL, the “Virus Neutralization Potency” value [12] was 0.07 µg/mL and the “Virus Neutralization Potency” value [13] was 0.1 µg/mL. The “Virus Neutralization Potency” value [14] was 0.14 µg/mL, the “Virus Neutralization Potency” value [15] was 0.16 µg/mL and the “Virus Neutralization Potency” value [16] was 0.16 µg/mL. The “Virus Neutralization Potency” value [17] was 0.26 µg/mL, the “Virus Neutralization Potency” value [18] was 0.28 µg/mL and the “Virus Neutralization Potency” value [19] was 0.38 µg/mL. For the same binder, the “Virus Neutralization Potency” value [20] was 0.46 µg/mL, the “Virus Neutralization Potency” value [21] was 0.61 µg/mL and the “Virus Neutralization Potency” value [22] was 0.67 µg/mL. For the same binder, the “Virus Neutralization Potency” value [23] was 1.03 µg/mL, the “Virus Neutralization Potency” value [24] was 1.56 µg/mL and the “Virus Neutralization Potency” value [25] was 1.93 µg/mL. The “Virus Neutralization Potency” value [26] was 2.45 µg/mL, the “Virus Neutralization Potency” value [27] was 2.71 µg/mL and the “Virus Neutralization Potency” value [28] was 2.88 µg/mL. The “Virus Neutralization Potency” value [29] was 3.1 µg/mL, the “Virus Neutralization Potency” value [30] was 3.84 µg/mL and the “Virus Neutralization Potency” value [31] was 4.07 µg/mL. For the same binder, the “Virus Neutralization Potency” value [32] was 4.82 µg/mL, the “Virus Neutralization Potency” value [33] was 5.08 µg/mL and the “Virus Neutralization Potency” value [34] was 5.35 µg/mL. The “Virus Neutralization Potency” value [35] was 7.09 µg/mL, the “Virus Neutralization Potency” value [36] was 8.96 µg/mL and the “Virus Neutralization Potency” value [37] was 23 µg/mL. For the same binder, the “Virus Neutralization Potency” value [38] was 24.6 µg/mL, the “Virus Neutralization Potency” value [39] was > 200 µg/mL and the “Virus Neutralization Potency” value [40] was > 200 µg/mL. For the same binder, the “Virus Neutralization Potency” value [41] was > 200 µg/mL and the “Virus Neutralization Potency” value [42] was > 200 µg/mL.
